Values from PubChem BioAssay AID504761 (Drosophila RNAi Screening Center, 2011)

Screen: 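Genome-wide fly cell screen for genes dengue virus requires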 (primary screen)
Cells: D.Mel-2 cells from Drosophila
Reagent: long dsRNA against Drosophila genes
Conditions: infection with dengue virus type 2; dose and infection time not stated
Measured: 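Per well on two replicate plates, imaging gave the percent of cells positive for viral envelope protein, ranked by infection, and a nuclear count of cells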
Direction: infection score: higher = more virus-infected cells; cell count: higher = more cells in the well
Call rule: 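Low infection ranks in the two replicates (chance level up to 0.065) followed by a retest with a 1.5-fold or larger significant decrease, p below 0.05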
Meaning of the calls: active = confirmed: knock-down lowers infection; inactive = not picked or not confirmed
The deposit covers about 22,000 reagents; below is a random part of those that have a named target and a result. Over the whole deposit, 116 (0.52%) are marked active. 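Calls depend on retest data that are not deposited; infection was ranked per plate without normalising between plates; the unit of the infection score is not given.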 Raw values vary from plate to plate and are shown uncorrected. The numbers tell different reagents against one gene apart. Further read-outs or replicates are left out here. The record does not give: the amount of reagent, the time to read-out.

no.	target gene	dsRNA no.	infection score, replicate 1	infection score, replicate 2	cell count, replicate 1	call
1	CG12662	1	14.8	9.31	5228	inactive
2	CG5886	1	1.12	2.11	6630	inactive
3	Peritrophin-15b	1	7.28	1.4	6082	inactive
4	mav (maverick)	1	1.23	3.46	6336	inactive
5	srp (serpent)	1	1.05	7.66	7403	inactive
6	srp (serpent)	2	10.3	11.2	4799	inactive
7	CNT2 (Concentrative nucleoside transporter 2)	1	15.1	1.7	6357	inactive
8	Hpr1	1	17	18	5896	inactive
9	CG40486	1	1.1	6.77	6743	inactive
10	slo (slowpoke)	1	2.13	3.24	6622	inactive
11	Trp1 (Translocation protein 1)	1	4.7	13.8	5979	inactive
12	Trp1 (Translocation protein 1)	2	1.04	3.53	6859	inactive
13	CG6424	1	6.38	10.2	6775	inactive
14	CG6424	2	9.36		1186	inactive
15	Nep5 (Neprilysin 5)	1	2.35	6.18	6694	inactive
16	vih (vihar)	1	3.66	3.46	3957	inactive
17	vih (vihar)	2	1.11	1.48	5417	inactive
18	Acat2 (Acetyl-CoA acetyltransferase 2)	1	3.62	5.25	5968	inactive
19	atlas	1	20.2	22.2	4835	inactive
20	Naxe (NAD(P)HX epimerase)	1	7.93	2.28	4424	inactive

Limited to “infection score, replicate 1” (5 entries from above):
slo (slowpoke)	2.13
Trp1 (Translocation protein 1) #1	4.7
Trp1 (Translocation protein 1) #2	1.04
CG6424 #1	6.38
CG6424 #2	9.36

Additional reagents follow:
no.	target gene	dsRNA no.	infection score, replicate 1	infection score, replicate 2	cell count, replicate 1	call
21	Brd (Bearded)	1	1.31	1.7	6120	inactive
22	Rhp (Rhophilin)	1	17.9	8.54	4802	inactive
23	Osi24 (Osiris 24)	1	10.4	2	5609	inactive
24	nanos	1	1.93	1.15	6534	inactive
25	nanos	2	1.08	1.4	6392	inactive
26	CG14731	1	3.81	6.36	6773	inactive
27	CG3817	1	5.43	5.96	6005	inactive
28	CG3817	2	9.14	10	6973	inactive
29	CG12069	1	5.25	3.1	3010	inactive
30	CG12069	2	3	6.74	6124	inactive
31	CG15385	1	7.13	3.21	6281	inactive
32	CaMKII (Calcium/calmodulin-dependent protein kinase II)	1	1.65	8.49	5998	inactive
33	L (Lobe)	1	9.14	5.77	6333	inactive
34	L (Lobe)	2	24.4	3.88	5174	inactive
35	L (Lobe)	3	6.85	13.9	6832	inactive
36	CG42268	1	1.47	2.13	5838	inactive
37	CG42268	2	1.15	1.49	6546	inactive
38	CG42268	3	4.82	4.63	6865	inactive
39	CG42268	4	6.38	7.09	6709	inactive
40	CG42268	5	10.7	5.86	3464	inactive
